Measured values from PMC3151279, “Cross-Reactivity of Anthrax and C2 Toxin: Protective Antigen Promotes the Uptake of Botulinum C2I Toxin into Human Endothelial Cells” (2011).

Target: C2II channel, trypsin-activated binding component of Clostridium botulinum C2 toxin (Clostridium botulinum)

In the case of “anthrax edema factor (from UniProt P40136 34-800)”, the Kd is reported as 13 nM.
